Compound potency records, mixed from different reports. Data source: NIAID ChemDB in PubChem.

Shared fields: growth or infection tests; organism: HIV-2; read-out: EC50

ECn: concentration that inhibits the pathogen or its effect by n%. Lines come from different laboratories, so protocols vary. a–b is a range or a potency band. An empty or dashed field is not shown.

compound	strain	cells	read by	result
O=S(=O)(O)O.O=S(=O)(O)O.O=S(=O)(O)O.O=S(=O)(O)O.O=S(=O)(O)O.O=S(=O)(O)O.O=S(=O)(O)O.O=S(=O)(O)O.O=S(=O)(O)O.O=S(=O)(O)O.O=S(=O)(O)O.O=S(=O)(O)O.OC[C@H]1O[C@@H]2O[C@H]3[C@H](O)[C@@H](O)[C@@H](O[C@H]4[C@H](O)[C@@H](O)[C@@H](O[C@H]5[C@H](O)[C@@H](O)[C@@H](O[C@H]6[C@H](O)[C@@H](O)[C@@H](O[C@H]7[C@H](O)[C@@H](O)[C@@H](O[C@H]1[C@H](O)[C@H]2O)O[C@@H]7CO)O[C@@H]6CO)O[C@@H]5CO)O[C@@H]4CO)O[C@@H]3CO	ROD	MT-4	cytopathic effect / MTT	0.4 µg/mL
CC(C)[C@H](NC(=O)CCc1nc2ccccc2[nH]1)C(=O)N[C@@H](Cc1ccccc1)[C@@H](O)[C@@H](NCc1ccccc1)C(=O)N[C@H](C(=O)NCc1ccccc1)C(C)C	ROD	MT-4	p24	0.665 µM
Clc1nccc2nc(-c3cccs3)cnc12	ROD	MT-4	cytopathic effect / MTT / absorbance	>5.23 µM
Cc1cc(S(N)(=O)=O)ccc1NC(=O)COc1ccc(Cl)cc1C(=O)c1cccc(C#N)c1		MT-4	cytopathic effect / propidium iodide	1–3 µM
CCCOC12CS(=O)(=O)OC13[C@@H](CN2)O[C@@H](n1cc(C)c(=O)[nH]c1=O)[C@@H]3O[Si](C)(C)C(C)(C)C	ROD	CEM		>10 µM
COc1cc(/C=C/C(=O)c2c(O)c3c(C)ccc(C(C)C)c3oc2=O)ccc1O	ROD	MT-4	virus yield	>14.2 µg/mL
O=c1ncc2nc(-c3ccccn3)c(-c3ccccn3)nc2[nH]1	ROD	MT-4	cytopathic effect / MTT / absorbance	>82.3 µM
Cc1cc2oc(=O)c(C(=O)/C=C/c3ccc(O)cc3)c(O)c2cc1Cl	ROD	MT-4	virus yield	>2.74 µg/mL
COC(=O)[C@@H](NP(=O)(OC[C@@H]1C=C[C@H](n2cc(C)c(=O)[nH]c2=O)O1)Oc1ccccc1)c1ccccc1		CEM + CEM TK-		4.5 µM
Nc1ncnc2c1ccn2[C@H]1C=C[C@@H](CO)C1	D194	PBMC	RT activity	0.35 µM
CC(C)[C@H](NC(=O)OCc1ccccc1)C(=O)N[C@@H](Cc1ccccc1)[C@@H](O)[C@@H](NCc1ccc(Br)cc1)C(=O)N[C@H](C(=O)NCc1nc2ccccc2[nH]1)C(C)C	ROD	MT-4	p24	1.2 µM
Cc1cn(C2OC(CO[Si](C)(C)C(C)(C)C)C3(OS(=O)(=O)C=C3N)C2O[Si](C)(C)C(C)(C)C)c(=O)n(/C=C/CO)c1=O	ROD	MT-4	trypan blue	>2 µM
CC(C)(C)[Si](C)(C)OC[C@H]1O[C@@H](n2ccc(=O)[nH]c2=O)[C@H](O[Si](C)(C)C(C)(C)C)[C@]12O[C@@H]2CO	ROD	MT-4	cytopathic effect / trypan blue	>10 µM
COc1cc2nc(-c3c(F)cccc3F)n(Cc3c(F)cccc3F)c2cc1Cc1c(F)cccc1F	ROD	MT-4	RT activity	>31.35 µM
CCC[C@H](NP(=O)(OC[C@@H]1C=C[C@H](n2cc(C)c(=O)[nH]c2=O)O1)Oc1ccccc1)C(=O)OC		CEM		1.1 µM
O=c1[nH]c(=S)[nH]c2nc(-c3ccccn3)c(-c3ccccn3)nc12	ROD	MT-4	cytopathic effect / MTT / absorbance	>79.23 µM
Cc1cccc(Nc2ccccc2C(=O)Nc2ccc(C(=O)/C=C/c3ccc(Cl)cc3)cc2)c1C	ROD	MT-4	MTT / absorbance	>2.17 µM
COC(=O)C(C)(C)NP(=O)(OC[C@@H]1C=C[C@H](n2cc(C)c(=O)[nH]c2=O)O1)Oc1ccccc1		CEM		0.5 µM
CCOC(=O)[C@H](C)NP(=O)(OC[C@@H]1C=C[C@H](n2cc(C)c(=O)[nH]c2=O)O1)Oc1ccccc1		CEM + CEM TK-	cytopathic effect / microscopy	0.07 µM
CC(C)(C)[Si](C)(C)OC[C@H]1O[C@@H](n2ccc(=O)[nH]c2=O)[C@H](O[Si](C)(C)C(C)(C)C)[C@@]12O[C@H]2C(N)=O	ROD	MT-4	cytopathic effect / trypan blue	>10 µM
CC(C)[C@H](NC(=O)[C@H](NCc1ccccc1)[C@H](O)[C@H](Cc1ccccc1)NC(=O)[C@@H](NC(=O)OCc1ccccc1)C(C)(C)C)C(=O)NCc1ccccc1	ROD	MT-4	p24	1.17 µM
COC(=O)[C@@H](NP(=O)(OC[C@@H]1C=C[C@H](n2cc(C)c(=O)[nH]c2=O)O1)Oc1ccccc1)C(C)C		CEM + CEM/0	cytopathic effect / microscopy	13 µM
Cc1cn([C@@H]2O[C@@H]3CN[C@@]4(OCCOc5ccccc5)CS(=O)(=O)O[C@@]34[C@H]2O)c(=O)[nH]c1=O	ROD	MT-4		>250 µM
COc1cc2nc(-c3c(F)cccc3Cl)n(Cc3c(F)cccc3Cl)c2cc1Cc1c(F)cccc1Cl	ROD	MT-4	RT activity	>18.75 µM
Cc1cn([C@@H]2O[C@@H]3CN[C@@]4(OCCOc5ccccc5)CS(=O)(=O)O[C@@]34[C@H]2O[Si](C)(C)C(C)(C)C)c(=O)[nH]c1=O	ROD	MT-4		>5 µM
Cc1cc2oc(=O)c(C(=O)/C=C/c3cccc(Oc4ccccc4)c3)c(O)c2cc1Cl	ROD	MT-4	virus yield	>60.4 µg/mL
CC(C)(C)[Si](C)(C)OC[C@H]1O[C@@H](n2ccc(=O)[nH]c2=O)[C@H](O[Si](C)(C)C(C)(C)C)/C1=C/CO	ROD	MT-4	cytopathic effect / trypan blue	>2 µM
Cc1cccc(Nc2ccccc2C(=O)Nc2ccc(C(=O)/C=C/c3ccccc3)cc2)c1C	ROD	MT-4	MTT / absorbance	>125 µM
Cc1cn([C@@H]2O[C@H](CO[Si](C)(C)C(C)(C)C)C3(O[C@H]3C(N)=O)[C@H]2O[Si](C)(C)C(C)(C)C)c(=O)[nH]c1=O	ROD	MT-4	cytopathic effect / trypan blue	>2 µM
CCCCCCCCCCCCCCCCCCOP(=O)(OCCCC)OP(=O)(O)OP(=O)(O)OP(=O)(O)OC[C@@H]1C=C[C@H](n2cc(C)c(=O)[nH]c2=O)O1	ROD	CEM/TK-	syncytia / visual reading	0.032 µM
COC(=O)[C@H](C)NP(=O)(OC[C@@H]1C=C[C@H](n2cc(C)c(=O)[nH]c2=O)O1)Oc1ccccc1		CEM + CEM TK-		0.075 µM
COC(=O)[C@H](C)NP(=O)(OC[C@@H]1C=C[C@H](n2cc(C)c(=O)[nH]c2=O)O1)Oc1ccccc1	ROD	CEM + CEM/0	cytopathic effect / trypan blue	0.102 µM
Cc1cn(C2OC(CO[Si](C)(C)C(C)(C)C)C3(OS(=O)(=O)C=C3N)C2O[Si](C)(C)C(C)(C)C)c(=O)n(/C=C\CO)c1=O	ROD	MT-4	trypan blue	>25 µM
Cc1cccc(Nc2ccccc2C(=O)Nc2ccc(-c3cc(-c4ccc(N(C)C)cc4)nc(=S)[nH]3)cc2)c1C	ROD	MT-4	MTT / absorbance	>7.02 µM
COc1ccc(/C=C/C(=O)c2c(O)c3c(C)ccc(C(C)C)c3oc2=O)cc1OC	ROD	MT-4	virus yield	>62 µg/mL
Cc1cn([C@@H]2O[C@@H]3CN[C@@]4(OCc5ccccc5)CS(=O)(=O)O[C@@]34[C@H]2O)c(=O)[nH]c1=O	ROD	CEM		>250 µM
Nc1nc2nc(-c3ccccn3)c(-c3ccccn3)nc2c(=O)[nH]1	ROD	MT-4	cytopathic effect / MTT / absorbance	>105.7 µM
Cc1cn([C@@H]2O[C@H](CO[Si](C)(C)C(C)(C)C)C3(O[C@H]3C(=O)NO)[C@H]2O[Si](C)(C)C(C)(C)C)c(=O)[nH]c1=O	ROD	MT-4	cytopathic effect / trypan blue	>2 µM
COc1ccc(/C=C/C(=O)c2c(O)c3c(C)ccc(C(C)C)c3oc2=O)cc1	ROD	MT-4	virus yield	>82.7 µg/mL
COC(=O)[C@@H](C)NP(=O)(OC[C@@H]1C=C[C@H](n2cc(C)c(=O)[nH]c2=O)O1)Oc1ccccc1	ROD	CEM + CEM/0		2 µM
Cc1ccc(C(C)C)c2oc(=O)c(C(=O)/C=C/c3ccc(O)cc3)c(O)c12	ROD	MT-4	virus yield	>8.95 µg/mL
Cc1cn([C@@H]2O[C@@H]3CN[C@@]4(OCC(C)(C)C)CS(=O)(=O)O[C@@]34[C@H]2O[Si](C)(C)C(C)(C)C)c(=O)[nH]c1=O	ROD	MT-4		<10 µM
CC(C)[C@H](NC(=O)OCc1ccccc1)C(=O)N[C@@H](Cc1ccccc1)[C@@H](O)[C@@H](NCc1ccccc1)C(=O)N[C@H](C(=O)NCc1ccccc1)C(C)C	ROD	MT-4	p24	>3 µM
Cc1cn([C@@H]2O[C@H](CO[Si](C)(C)C(C)(C)C)C3(O[C@H]3C(=O)NN)[C@H]2O[Si](C)(C)C(C)(C)C)c(=O)[nH]c1=O	ROD	MT-4	cytopathic effect / trypan blue	>10 µM
CCO[C@]12CS(=O)(=O)O[C@@]13[C@@H](CN2)O[C@@H](n1cc(C)c(=O)[nH]c1=O)[C@@H]3O[Si](C)(C)CCC(C)(C)C	ROD	CEM		>10 µM
S=c1nc[nH]c2nc(-c3ccccn3)c(-c3ccccn3)nc12	ROD	MT-4	cytopathic effect / MTT / absorbance	>115 µM
Cc1cn(C2OC(CO[Si](C)(C)C(C)(C)C)C3(OS(=O)(=O)C=C3N)C2O[Si](C)(C)C(C)(C)C)c(=O)n(CC2CO2)c1=O	ROD	MT-4	trypan blue	>50 µM
Cc1ccc2nc(-c3c(F)cccc3F)n(Cc3c(F)cccc3F)c2c1	ROD	MT-4	RT activity	>30.45 µM
Cc1cn([C@@H]2O[C@@H]3CN[C@H]4CS(=O)(=O)O[C@]43[C@H]2O[Si](C)(C)C(C)(C)C)c(=O)[nH]c1=O	ROD	MT-4		>125 µM
NC1N=CNc2nc(-c3ccccn3)c(-c3ccccn3)nc21	ROD	MT-4	cytopathic effect / MTT / absorbance	>12.1 µM

For reference, 4 entries again:

compound	strain	cells	read by	result
CCCOC12CS(=O)(=O)OC13[C@@H](CN2)O[C@@H](n1cc(C)c(=O)[nH]c1=O)[C@@H]3O[Si](C)(C)C(C)(C)C	ROD	CEM		>10 µM
Cc1cn([C@@H]2O[C@@H]3CN[C@@]4(OCC(C)(C)C)CS(=O)(=O)O[C@@]34[C@H]2O[Si](C)(C)C(C)(C)C)c(=O)[nH]c1=O	ROD	MT-4		<10 µM
O=S(=O)(O)O.O=S(=O)(O)O.O=S(=O)(O)O.O=S(=O)(O)O.O=S(=O)(O)O.O=S(=O)(O)O.O=S(=O)(O)O.O=S(=O)(O)O.O=S(=O)(O)O.O=S(=O)(O)O.O=S(=O)(O)O.O=S(=O)(O)O.OC[C@H]1O[C@@H]2O[C@H]3[C@H](O)[C@@H](O)[C@@H](O[C@H]4[C@H](O)[C@@H](O)[C@@H](O[C@H]5[C@H](O)[C@@H](O)[C@@H](O[C@H]6[C@H](O)[C@@H](O)[C@@H](O[C@H]7[C@H](O)[C@@H](O)[C@@H](O[C@H]1[C@H](O)[C@H]2O)O[C@@H]7CO)O[C@@H]6CO)O[C@@H]5CO)O[C@@H]4CO)O[C@@H]3CO	ROD	MT-4	cytopathic effect / MTT	0.4 µg/mL
COC(=O)C(C)(C)NP(=O)(OC[C@@H]1C=C[C@H](n2cc(C)c(=O)[nH]c2=O)O1)Oc1ccccc1		CEM		0.5 µM